Experiments:
[1] = system: P. falciparum malaria parasite clone Indochina (W-2); assay: in vitro susceptibility testing, uptake of tritiated hypoxanthine as index of inhibition of parasite growth, Indochina (W-2) clone; type: cell-based; conditions: for IC50: read-out: W2 IC50, Table IV; for IC90: read-out: W2 IC90, Table IV
[2] = system: P. falciparum malaria parasite clone Sierra Leone (D-6); assay: in vitro susceptibility testing, uptake of tritiated hypoxanthine as index of inhibition of parasite growth, Sierra Leone (D-6) clone; conditions: for IC50: read-out: D6 IC50, Table IV; for IC90: read-out: D6 IC90, Table IV

Compound	IC50 [1] [nM]	IC90 [1] [nM]	IC50 [2] [nM]	IC90 [2] [nM]
COC1OC2(C)CCC3CCCC(CCOP(=O)(Oc4ccccc4)Oc4ccccc4)C31OO2 (centres unmarked)	< 0.16	< 0.16	0.52	5.01
CCOP(=S)(OCC)OCCC1CCCC2CCC3(C)OOC12C(OC)O3 (centres unmarked)	0.29	1.39	0.97	5.16
